Data as given in PubChem BioAssay AID624099 (ICCB-Longwood, 2012)
Shown is one part, drawn at random, of about 21,000 deposited reagents. 497 of them (2.4%) count as active. 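Higher z means weaker E2 silencing; only reporter increases were scored, and knock-downs that hurt cell survival may mask genuine repressor factors.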 Entries without a mark were called inactive.

- Purpose: 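Knock-downs relieving repression by E2 of an HPV18 LCR luciferase reporter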 (primary screen)
- Cells: human C33A cervical carcinoma cells (HPV-negative) stably expressing BPV1 E2 and an HPV18 LCR luciferase reporter
- Reagent: siRNA pool against human genes, 40 nM
- Timing: 72 h
- Measured: 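HPV18 LCR reporter light per well, converted to plate-wise z-scores that exclude control wells, and averaged over triplicate plates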
- Scale: mean z-score and z-score: higher = stronger reporter signal, weaker E2 silencing
- Active means: 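Mean z ≥ 2 together with z ≥ 2 in two or more of the three replicates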

no.	gene	PubChem SID	mean z-score	z-score, replicate A	z-score, replicate B	z-score, replicate C
1	TRAPPC11	SID134320761	0.05	0.27	0.21	-0.34
2	ROMO1	SID134319316	0.57	0.36	0.2	1.14
3	PIGA	SID134316070	-1.19	-1.14	-1.09	-1.34
4	LOC158825 (retired record)	SID134326179	-0.23	0.23	-0.19	-0.72
5	STK32B	SID56478812	1.38	1.44	1.16	1.54
6	REG4	SID134317759	-0.3	-0.38	0	-0.53
7	AKR1A1	SID134310736	0.86	0.69	1.03	0.85
8	LARP1B	SID134317579	-0.86	-1.31	-1.2	-0.07
9	FIS1	SID134324536	-0.29	-0.15	-0.36	-0.35
10	LOC389029 (retired record)	SID134327229	-0.84	-0.43	-0.89	-1.19
11	ZFHX2	SID134324188	0.98	1.12	1.34	0.47
12	ZFHX2	SID134325211	-1.52	-1.43	-1.92	-1.21
13	DKK1	SID134310104	1.64	1.37	1.86	1.7
14	RHBDD3	SID134323519	-0.01	-0.02	-0.2	0.18
15	EXOC3L1	SID134322107	-0.62	-0.78	-0.41	-0.67
16	FBXO25	SID134323000	-0.38	-0.47	-0.22	-0.46
17	NIPAL4	SID134326028	0.93	0.93	0.83	1.01
18	NCOA7	SID134322697	-0.21	0.02	-0.24	-0.41
19	FOCAD	SID134319410	-0.47	-0.63	-0.27	-0.5
20	IGFL3	SID134329549	-1.41	-1.62	-1.46	-1.15
21	PRSS54	SID134328662	0.24	-0.09	0.6	0.21
22	TDRD3	SID134318768	-0.76	-0.9	-0.45	-0.92
23	DNAJC18	SID134320869	0.08	0.63	-0.36	-0.04
24	FLII	SID134321439	0.46	0.54	0.32	0.51
25	OXSR1	SID56478904	0.62	0.49	0.39	0.98
26	MRGPRE	SID134311103	-0.78	-0.65	-0.57	-1.12
27	SLX9	SID134319270	0.91	1.04	0.68	1.01
28	TMEM270	SID134322756	-0.33	-0.36	-0.34	-0.3
29	SNIP1	SID134320469	1.29	1	1.48	1.38
30	LOC143243 (retired record)	SID134326518	-0.71	-1.3	-0.46	-0.37
31	GSEC	SID134328242	-0.77	-0.68	-1.15	-0.48
32	UPF2	SID134317235	0.36	0.47	0.46	0.14
33	JOSD2	SID134319538	0.87	0.77	0.62	1.2
34	C2CD5	SID134318356	0.86	0.95	0.83	0.8
35	PAEP	SID134314678	-0.69	-0.58	-0.71	-0.77
36	C10orf90	SID134326528	-0.71	-0.84	-0.75	-0.54
37	SPATA46	SID134322672	1.31	1.25	1.34	1.34
38	CPT1C	SID134313677	0.2	0.34	0.04	0.22
39	LINC01554	SID134322303	0.5	0.19	0.79	0.53
40	PCDHGA7	SID134317502	-1.14	-1.63	-0.98	-0.79
41	PRX	SID134329232	-0.5	-0.76	-0.52	-0.21
42	ABHD2	SID134313210	1.21	1.7	1.05	0.89
43	CYP1B1	SID134313163	-0.42	-0.35	-0.56	-0.33
44	LNX2	SID134312285	0.89	0.77	1.04	0.86
45	KIF2C	SID134310681	1.01	0.93	1.01	1.08
46	TTN	SID56479061	-0.69	-0.72	-0.67	-0.67
47	SSX1	SID134323002	1.29	1.37	1.63	0.86
48	VIPAS39	SID134320138	-1.08	-0.76	-1.23	-1.26
49	STARD7-AS1	SID134327211	-0.43	0	-0.98	-0.3
50	GDF9	SID134316338	0.15	0.03	0.19	0.22
51	GH2	SID134315990	-0.52	-0.59	-0.71	-0.25
52	AQP7P1	SID134328079	-0.86	-1.07	-0.68	-0.84
53	ZNF639	SID134312109	1.49	1.78	1.64	1.04
54	FBF1	SID134328743	0.28	0.1	0.38	0.37
55	ATAD2B	SID134325464	-0.05	-0.22	-0.01	0.07
56	LYPD1	SID134320302	-0.87	-0.95	-0.77	-0.89
57	SLC22A8	SID134312505	1.26	1.15	1.36	1.28

8 of these entries in another layout:
SPATA46 [SID134322672]
- mean z-score: 1.31
- z-score, replicate A: 1.25
- z-score, replicate B: 1.34
- z-score, replicate C: 1.34

CPT1C [SID134313677]
- mean z-score: 0.2
- z-score, replicate A: 0.34
- z-score, replicate B: 0.04
- z-score, replicate C: 0.22

LINC01554 [SID134322303]
- mean z-score: 0.5
- z-score, replicate A: 0.19
- z-score, replicate B: 0.79
- z-score, replicate C: 0.53

PCDHGA7 [SID134317502]
- mean z-score: -1.14
- z-score, replicate A: -1.63
- z-score, replicate B: -0.98
- z-score, replicate C: -0.79

PRX [SID134329232]
- mean z-score: -0.5
- z-score, replicate A: -0.76
- z-score, replicate B: -0.52
- z-score, replicate C: -0.21

ABHD2 [SID134313210]
- mean z-score: 1.21
- z-score, replicate A: 1.7
- z-score, replicate B: 1.05
- z-score, replicate C: 0.89

CYP1B1 [SID134313163]
- mean z-score: -0.42
- z-score, replicate A: -0.35
- z-score, replicate B: -0.56
- z-score, replicate C: -0.33

LNX2 [SID134312285]
- mean z-score: 0.89
- z-score, replicate A: 0.77
- z-score, replicate B: 1.04
- z-score, replicate C: 0.86
